Measured values from several laboratories, pooled; numbers as filed in NIAID ChemDB.

All rows: whole-cell or culture tests; organism: HIV-1; cell line: CEM + CEM-SS; measure: fold resistance

Fold resistance has wild type as its base. Rows are shuffled and stem from different studies.

compound	strain or isolate	mutations	read by	result
Cc1cn([C@H]2C[C@H](N=[N+]=[N-])[C@@H](CO)O2)c(=O)[nH]c1=O	NL4-3	RT-L74V	XTT	5
CCc1c(Sc2ccccn2)n(COCc2ccccc2)c(=O)[nH]c1=O	NL4-3	RT-K103E	cytopathic effect / XTT	19.4
CC(C)=CCOc1cc(NC(=S)c2ccsc2C)ccc1Cl	Calanolide A-resistant (RT T139I)	RT-T139I	XTT	0.6
O=[N+]([O-])c1ccccc1S(=O)(=O)c1ccccc1	IIIB(A17(III))	RT-K103N Y181C	cytopathic effect / XTT	60
O=S(=O)(c1ccccc1)c1ccccc1	IIIB HEPT-resistant (RT P236L)	RT-P236L	cytopathic effect / XTT	0.8
Fc1cccc(F)c1C1SCc2nc3ccccc3n21	UC781-R (RT-Y181C)	RT-Y181C	cytopathic effect / XTT	>20.3
Cc1ccnc2c1NC(=O)c1cccnc1N2C1CC1	NL4-3	RT-V179D	XTT	1.5
Cc1occc1C(=S)Nc1ccc(Cl)c(/C=N/OC(C)(C)C)c1	NL4-3 (RT Y188C)	RT-Y188C	cytopathic effect / XTT	5
O=S1(c2ccccc2)=NC(=S)Nc2ccccc21	IIIB(DPS-R(III))	RT-Y181C	cytopathic effect / XTT	>250
Cc1cn([C@H]2C[C@H](N=[N+]=[N-])[C@@H](CO)O2)c(=O)[nH]c1=O	NL4-3	RT-L100I	cytopathic effect / XTT	3
CCCc1cc(=O)oc2c3c(c4c(c12)OC(C)(C)C=C4)O[C@H](C)[C@@H](C)[C@@H]3O	IIIB(CALO-R(II))	RT-V90I T139I P225S	cytopathic effect / XTT	>19
CCc1c(C(=O)c2cc(C)cc(C)c2)n(CC2CC=CC2)c(=O)[nH]c1=O	4XAZT/L100I (RT D67N K70R L100I T215Y K219Q)	RT-D67N K70R L100I T215Y K219Q	cytopathic effect / XTT	0.05
C/C=C/CSc1cc(NC(=S)c2ccsc2C)ccc1Cl	NL4-3 (RT V108I)	RT-V108I	cytopathic effect / XTT	4
c1ccc2c(c1)sc1nccn12	IIIB(CALO-R(II))	RT-V90I T139I P225S	cytopathic effect / XTT	2

Again, the opening 2 rows:

compound | strain or isolate | mutations | read by | result
Cc1cn([C@H]2C[C@H](N=[N+]=[N-])[C@@H](CO)O2)c(=O)[nH]c1=O | NL4-3 | RT-L74V | XTT | 5
CCc1c(Sc2ccccn2)n(COCc2ccccc2)c(=O)[nH]c1=O | NL4-3 | RT-K103E | cytopathic effect / XTT | 19.4